The text below walks through data of PMC7843721.

Data set [1] has as its target T1, MtrA (UniProt P9WGM7).
T1 sequence (looked up, limits assumed): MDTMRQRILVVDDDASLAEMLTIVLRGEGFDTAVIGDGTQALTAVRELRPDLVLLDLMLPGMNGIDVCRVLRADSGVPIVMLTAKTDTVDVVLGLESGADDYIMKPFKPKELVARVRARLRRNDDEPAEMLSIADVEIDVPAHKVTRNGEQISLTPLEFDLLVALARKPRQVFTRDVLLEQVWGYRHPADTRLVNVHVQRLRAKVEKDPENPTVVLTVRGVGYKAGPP
Put plainly: EMSA. The note with it: recombinant protein, protein details: 6xHis, label: 32P 5'-end, probe letters rebuilt from the primers and the genome.

In data set [2] the target is T2, MtrA~P (UniProt P9WGM7).
T2 sequence (looked up, limits assumed): T1 sequence (looked up, limits assumed)
Put plainly: EMSA. The note with it: recombinant protein; protein details: 6xHis; label: 32P 5'-end; probe letters rebuilt from the primers and the genome. For orientation: A gel shift assay detects complexes by their altered migration in electrophoresis.

For at least one entry, the source does not settle the construct or the ends of the probe. Where a protein sequence is shown, tags need not be part of it.

On to “TTGCGCCCTTTCACCTCACGATGAGTTCGATCCCGTGGCTAGCGCCCCGCTAGCGTGGGGACTGCCAACGACGAATGCCCATGACGCGTGACCCGCCACGACGGCCGCAACAGCAGTCGAACAACAACCGTAGAGCTTCTCACGTCAACTTGAAAGTTCATCATTGACCTCTGACCCACCGCGACGAGCCAGTTATGCGGGTGGTATCCAGCGAACGATCCCCAGCGCTGTCTTTCCAAGAACAAACGACGAAGAAATCTCGGTAACAGTATTAGAGGGTGTGCAGTTTGGGGACAGTCTGGTCTTGGTGCAGGTCGACGTCGGTCGGAGTTGTGGATGACGGTGGCGATGACTGTGGGGTGTGTGTTGGGTCGGTGGGGATGAGGCGTGGGTTGTGAACGGAACCGCCGGGACTGTATGAGTCTGTGCGCGGTTTGTGCACAGCGACACTCACAGCCAATCTCTGTGACTGGTGTGACCTGGGAGAGAGAAGTTTTTTTAAGAACGTTGTCGGAAGAACACGCCGTGCTAGCGCTTGGAGCGCTGACGGATG (double strand) [oriC 526 bp]”, for which the binding result in data set [1] (MtrA titration, 4 uM) is “binds”; in data set [2], “binds”.

As for “GATCGTCGACCATCGGTGATTGGGTCTGATGAAGTTTGGTAAGTAGAGTCAACGCGCTATATCCCCGACCTCGGCAACACTCAACCACCTACACAGCGAACAAAAAGCAAAATGGGCCCTCCGAAACCTAGAGGCCCCACCCGTTCGATCACAAGACGGTAACGAACCGGCCAATGTTGAGCAACTCCGGCGCGCGGGTGTTATGGGCCGCTCGGCGCGCTCATTGGCGCATCCACCCTAGCCCATAAGCTCGGCGAGCGTTGCTTGTGGTGATGAGCGCCACCTCTTCGGGGCGCCGATTGACCAGTTCAGCCAGCGCCCGCACGGTATAGGGCAGGCAGTACGGTTCGTTCGCCAAGCCCCGGTGGGGATGCGGGGTCAAATACGGTGCATCGGTTTCCACCAAAAGCTGCTCCACCGGCATCAGCGGGACGGCTTCCCGTAGTTCACGGGCGGTACGGAGAATTCGATC (double strand) [rpfB promoter 440 bp]”, the binding result in data set [1] (2 uM MtrA) and in data set [2] was “binds” in each case.
